Measured values as given in PubChem BioAssay AID624483 (NMMLSC, 2012).
Only a part is listed here, and it is no random draw. Calls of active or inactive are those of the source. Cut-off read from the data, not from the text of the source: active = fluorescence intensity above about 16000; inconclusive = no clear call, values can overlap the other calls; inactive = below that.

assay: compound fluorescence in toxin protease inhibitor counterscreen, primary screen, artefact control for toxin protease inhibitor project, biochemical, multiplex microsphere, HTS (AID 624483); conditions: compound autofluorescence counterscreen, microsphere flow cytometry; stronger effect = higher value; note: test concentration not given here

Compound	fluorescence intensity
CCC1=CC2Cc3nc4ccc(Cl)cc4c(N)c3C(C1)C2 (centres undefined)	inactive: 3410
O=C(O)C(O)c1ccc(N(CCCl)CCCl)cc1.c1ccncc1 (centres undefined)	inactive: 3210
CCOP(=O)(Nc1ccc(C)cn1)OCC	inactive: 3500
CN(CCCl)Cc1cc(Cl)c(NC2=NCCN2)c(Cl)c1	inactive: 5590
Cc1ccc(S(=O)(=O)N(CCCN)CCCc2c(C)nc(N)[nH]c2=O)cc1.O=[N+]([O-])c1cc([N+](=O)[O-])c(O)c([N+](=O)[O-])c1	inactive: 5940
CC(C)/C=N\N=C(\N)N[N+](=O)[O-]	inactive: 4000
CN(C(=O)Cc1ccc(Cl)c(Cl)c1)[C@@H]1CCCC[C@H]1N1CCCC1	inactive: 5920
Cc1nc2ccc3ccccc3c2s1.O=[N+]([O-])c1cc([N+](=O)[O-])c(O)c([N+](=O)[O-])c1	inactive: 2790
CC1(CBr)Cn2c(nc3ccccc3c2=O)S1 (centres undefined)	inactive: 3300
O=[N+]([O-])c1cc([N+](=O)[O-])c(-c2cnn(-c3ccccc3)c2)c([N+](=O)[O-])c1	inactive: 4110
Cc1cc(C)cc(OP(C)(=O)Nc2ccc(C)cc2C)c1 (centres undefined)	inactive: 11800
Cc1cccc(OCC(=O)OC2CN3CCC2CC3)c1 (centres undefined)	inactive: 2100
O=[As](O)(c1cccc(O)c1)c1cccc(O)c1	inactive: 3270
CCOC(=O)c1ccc(NP(C)(=O)Oc2cc(C)cc(C)c2)cc1 (centres undefined)	inactive: 2710
CS(=O)(=O)c1ccc(Cl)c(NC(=O)COC(=O)C(O)(c2ccccc2)c2ccccc2)c1	inactive: 5990
COc1ccccc1OP(C)(=O)Nc1cccc(Br)c1 (centres undefined)	inactive: 4590
O=[As](O)(O)c1cccnc1	inactive: 3940
COc1cc(C(=O)NCC2(N3CCOCC3)CCCCC2)cc(Cl)c1OC(C)C	inactive: 4800
CCOP(=O)(Nc1cccc2ccccc12)OCC	inactive: 2480
Nc1cccc2c([As](=O)(O)O)cccc12	inactive: 3830

Compound	fluorescence intensity
Cc1ccc(NCCc2c([N+](=O)[O-])cc([N+](=O)[O-])cc2[N+](=O)[O-])cc1	inactive: 2090
Cc1cc(C)cc(OP(C)(=O)Nc2ccccn2)c1 (centres undefined)	inactive: 5820
CP(=O)(Nc1cccc(Br)c1)Oc1ccccc1 (centres undefined)	inactive: 4120
Cc1ccc(C)c(NP(C)(=O)Oc2ccccc2)c1 (centres undefined)	inactive: 3760
CCCOP(=S)(Nc1nc(N)cc(=O)[nH]1)OCCC	inactive: 3420
Nc1ccccc1[As](=O)(O)c1ccccc1	inactive: 3300
O=C(O)COc1ccc([As](=O)(O)O)cc1[N+](=O)[O-]	inactive: 3090
O=P(Nc1nccs1)(Oc1ccccc1)Oc1ccccc1	inactive: 1970
O=P(Nc1nccs1)(c1ccccc1)c1nc2ccccc2s1 (centres undefined)	inactive: 5790
CCOP1(=S)c2c(C)nn(CCC#N)c2N=C(c2ccccc2F)N1C (centres undefined)	inactive: 10500
O=C(O)c1cccc(Nc2c([N+](=O)[O-])cc([N+](=O)[O-])cc2[N+](=O)[O-])c1	inactive: 4300
CCOP1(=S)c2c(C)nn(CCC#N)c2N=C(c2ccc(F)cc2)N1C (centres undefined)	inactive: 7190
CN(C(=O)Cc1ccccc1)[C@@H]1CC[C@]2(CCCO2)C[C@H]1N1CCCC1	inactive: 8080
CC1=NCCc2c1[nH]c1ccccc21.O=[N+]([O-])c1cc([N+](=O)[O-])c(O)c([N+](=O)[O-])c1	inactive: 3590
CN(C(=O)Cc1ccc(Cl)c(Cl)c1)[C@H]1CC[C@@]2(CCCO2)C[C@@H]1N1CCCC1	inactive: 5950
O=[N+]([O-])c1ccc2c(c1)nnn2O	inactive: 7980
CN(C)C(=O)c1cc([N+](=O)[O-])cc2c1-c1c(cc([N+](=O)[O-])cc1[N+](=O)[O-])C2=O	inactive: 3020
NC(=O)Nc1ccc([As](=O)(O)O)cc1	inactive: 3730
COc1ccc(OP(C)(=O)Nc2ccc(SC(F)(F)F)cc2)cc1 (centres undefined)	inactive: 4180
CCOC(=O)c1ccc(NP(C)(=O)Oc2ccc(F)cc2)cc1 (centres undefined)	inactive: 10700

Compound	fluorescence intensity
CCN(CC)CCCNc1ccccc1[N+](=O)[O-].O=[N+]([O-])c1cc([N+](=O)[O-])c(O)c([N+](=O)[O-])c1	inactive: 6120
c1ccc(-c2nn[nH]n2)c(-c2nn[nH]n2)c1	inactive: 4230
CCNC(=S)/N=C(\N)N[N+](=O)[O-]	inactive: 4380
O=C(NC1CCS(=O)(=O)C1)NP(=S)(Oc1ccccc1)Oc1ccccc1 (centres undefined)	inactive: 4320
O=c1c2cc([N+](=O)[O-])ccc2[nH]c2c([N+](=O)[O-])cc([N+](=O)[O-])cc12	inactive: 4020
CCCCCOc1ccc(NP(C)(=O)Oc2ccc(Cl)cc2Cl)cc1 (centres undefined)	inactive: 3640
O=[N+]([O-])c1cc([N+](=O)[O-])c(OC2CCCCC2O)c([N+](=O)[O-])c1 (centres undefined)	inactive: 4100
CN(C)C(=O)Oc1noc2ccccc12	inactive: 3710
CC(NC(=O)COC(=O)C(O)(c1ccccc1)c1ccccc1)c1ccccc1 (centres undefined)	inactive: 3600
CP(=O)(Nc1ccccc1)Oc1ccc(F)cc1 (centres undefined)	inactive: 13100
CCN(CC)CCCOC(=O)C(O)(c1ccccc1)C1CCCCC1 (centres undefined)	inactive: 3520
CCC(=O)N1C2C3N(C(=O)CC)C1C1N(C(=O)CC)C(C(N1C(=O)CC)N3C(=O)CC)N2C(=O)CC	inactive: 2790
O=C(OC1CN2CCC1CC2)c1ccccc1 (centres undefined)	inactive: 3560
Cc1ccc(OP(=O)(Nc2ccccn2)Oc2ccc(C)cc2)cc1	inactive: 4700
CC(=O)NC(SC(=S)N(CC(C)C)CC(C)C)C(Cl)(Cl)Cl (centres undefined)	inactive: 2020
Cc1c([N+](=O)[O-])cc([N+](=O)[O-])c(Br)c1[N+](=O)[O-]	inactive: 3980
COC(=O)c1cc2c(s1)N=C(c1ccccc1)N(C)P2(=O)N1CCOCC1 (centres undefined)	inactive: 2800
CC(C)c1ccc(OP(C)(=O)Nc2ccc(SC(F)(F)F)cc2)cc1 (centres undefined)	inactive: 2480
CC(C)(C)C(=O)NC(Sc1ccccc1)C(Cl)(Cl)Cl (centres undefined)	inactive: 4880
